Measured values from several laboratories, pooled; numbers as filed in NIAID ChemDB.

Common to all: whole-cell or culture tests; agent: Mycobacterium tuberculosis

Inhibition is in % at the dose shown (toxicity tests: loss of growth or viability). Neighbouring rows are from separate reports. MIC bound: limit read from a one-dose screen. Two numbers with a dash give a range or band. MIC50, MIC90 and the like: level of inhibition, or share of isolates inhibited. ECn: concentration that inhibits the pathogen or its effect by n%. An empty or dashed field is not shown.

structure	tested at	strain	method	read-out	value
CCCCCCCCOc1ccc(NC(=O)OCC[NH+]2CCCC2)cc1		My 331/88		MIC	16 µM
CC1COc2c(N3CCN(C)CC3)c(F)cc3c(=O)c(C(=O)O)cn1c23				MIC90	0.5–4 µg/mL
COc1cc(C#N)c(NC(=S)N2CCN(C(=O)c3ccco3)CC2)cc1OC		H37Rv	BACTEC	MIC bound	>12.5 µg/mL
CCCCOc1ccc(NC(=O)OCC[NH+]2CCCC2)cc1		My 331/88		MIC	250 µM
CC(C)N(C(=S)S)C(C)C		H37Rv	BACTEC	MIC	≥12.5 µg/mL
NNC(=O)c1cccc2ccccc12		BCG		MIC	80 µg/mL
O=C1N(c2nncs2)CCN1[N+](=O)[O-]		PZA-R		MIC	3.1 µg/mL
CN1CCN(c2c(F)cc3c(=O)c(C(=O)O)cn(CCF)c3c2F)CC1				MIC90	3.13 µg/mL
S=C(Nc1ccccc1)Nc1ncc(C2CCC2)o1		MDR clinical isolate	agar	MIC	5.73 µM
CCCCCCCCCOc1ccccc1NC(=O)OCC[NH+]1CCCC1		My 331/88		MIC	16 µM
CN(C)c1ccc(NC(=S)Nc2ncc(C3CCC3)o2)cc1		MDR clinical isolate	agar	MIC	2.78 µM
CC(C)C(N)C(=O)NN		H37Rv	BACTEC	MIC bound	>12.5 µg/mL
Cc1cccc(OC(=O)c2ccc(NC(=O)/C=C\C(=O)O)cc2O)c1		H37Rv		MIC	0.125 µg/mL
CC(=O)O[C@H]1CC2C(C)(C)OC3CC(=O)OCC32C2CC[C@@]3(C)C(=CC[C@@H]3c3ccoc3)[C@]21C	12.5 µg/mL	H37Rv	BACTEC	inhibition	26%
CN(C)c1ccc(O)c2c1C[C@H]1C[C@H]3[C@H](N(C)C)C(=O)C(C(N)=O)=C(O)[C@@]3(O)C(=O)C1=C2O		97 strains		MIC	>64 µg/mL
CCCCCCCCCCOc1ccccc1NC(=O)OCC[NH+]1CCCC1		My 331/88		MIC	16 µM
CC1=NN(c2ccc3c(c2)Nc2ccccc2S3)C2NC(=S)NC(c3ccccc3Cl)C12		H37Rv	BACTEC / broth dilution / radiometric	MIC	<6.25 µg/mL
CC(C)C1Nc2cc(C(C)(C)C)cc(C(C)(C)C)c2O1		My 331/88		MIC	500 µM
CCOC(=O)c1ccc(NC(=O)CCC(=O)O)cc1O		H37Rv		MIC	>20 µg/mL
[N-]=[N+]=NCCCCCCN1C(=O)C2(OCCO2)c2cc(F)ccc21		MC2 6230		MIC99	>299 µM
Cc1cnc(NC(=S)Nc2ncc(C3CCC3)o2)cc1C		MDR clinical isolate	agar	MIC	0.62 µM
C=C(C)c1ccc2c(c1)C(=O)C[C@@H]1[C@](C)(C#N)CCC[C@]21C		H37Rv	BACTEC	MIC bound	≤12.5 µg/mL
Cc1nc2ccccc2nc1C(=O)CN(C)Cc1ccccc1		H37Rv	resazurin	MIC	50 µg/mL
CC[C@H]1OC(=O)[C@H](C)C(=O)[C@H](C)[C@@H](O[C@@H]2O[C@H](C)C[C@H](N(C)C)[C@H]2O)[C@](C)(OC)C[C@@H](C)C(=O)[C@H](C)[C@H]2N(NCCCc3ccnc4ccccc34)C(=O)O[C@]12C		Isolate 900145		MIC	40 µg/mL
CCCCCCCOc1ccc(NC(=O)OCC[NH+]2CCCC2)cc1		My 331/88		MIC	16 µM
CC(=O)NCCSCC(=O)c1nc2ccccc2nc1C		H37Rv	resazurin	MIC	50 µg/mL
O=C(N/N=C/C=C/c1ccccc1)c1ccncc1		BCG		MIC	0.06 µg/mL
CO/N=C(/C(=O)N[C@@H]1C(=O)N2C(C(=O)O)=C(COC(N)=O)CS[C@H]12)c1ccco1		H37Ra		MIC	64 µg/mL
Cc1ccc(OC(=O)c2ccc(NC(=O)CCC(=O)O)cc2O)cc1		H37Rv		MIC	0.5 µg/mL
CC(C)CC(NC(=O)c1nc2c(C(C)(C)C)cc(C(C)(C)C)cc2o1)C(=O)O		My 331/88		MIC	250 µM
O=[N+]([O-])c1cn2c(n1)OC[C@@H](OCc1ccc(OC(F)(F)F)cc1)C2		H37Rv		MIC	0.125 µg/mL
Cc1c(Cl)c(Cl)nn1C(C)C(=O)N(C)C		H37Rv	BACTEC	MIC bound	>12.5 µg/mL
S=C(Nc1ccccn1)Nc1ncc(C2CCC2)o1		MDR clinical isolate	agar	MIC	6.42 µM
Cc1ccccc1OC(=O)c1ccc(NC(=O)c2ccccc2C(=O)O)cc1O		H37Rv		MIC	0.25 µg/mL
CC(=O)/C(N=Nc1ccc(C(=O)N/N=C/c2ccncc2)cc1)=C(\C)O	12.5 µg/mL	H37Rv		inhibition	16%
Cn1c(=O)c2c3oc(=O)cc(O)c3c(=O)n3c4ccccc4n(c1=O)c23		H37Rv	BACTEC	MIC	≥12.5 µg/mL
Cc1c(-c2nc3cc(C(C)(C)C)cc(C(C)(C)C)c3o2)[nH]c2ccccc12		My 331/88		MIC	250 µM
O=C1CCCCCCCCCCCCCCCO1		RMP-R		MIC	>12.8 µg/mL
CC1CCC(C)N1NNC(=O)c1ccncc1		BCG		MIC	10 µg/mL
CCSc1nc(Cl)c(C#N)c(-c2ccco2)n1		H37Rv		MIC	1.56 µg/mL
Cc1ccc2c(c1)C(=O)C(=O)N2CCCCN=[N+]=[N-]		MC2 6230		MIC99	>388 µM
CCc1cccc(C)c1N1C(=O)C(=O)C(c2nc3ccccc3o2)/C(=N/NS(=O)(=O)c2ccc(C)cc2)C1=O	6.25 µg/mL	H37Rv	resazurin	inhibition	9%
Cc1ccc(C2=NNC(c3cn(-c4ccc(Cl)cc4)nc3-c3ccc(Cl)cc3)C2)o1		H37Rv	resazurin	MIC	25 µg/mL
CCSc1nc(Cl)c(C#N)c(-c2ccc(F)cc2F)n1		H37Rv		MIC	>25 µg/mL
CO[C@H]1/C=C/O[C@@]2(C)Oc3c(C)c(O)c4c(O)c(c(/C=N/N=C/N5CCCCC5)c(O)c4c3C2=O)NC(=O)/C(C)=C\C=C\[C@H](C)[C@H](O)[C@@H](C)[C@@H](O)[C@@H](C)[C@H](OC(C)=O)[C@@H]1C		10 strains (RIF-resistant)		MIC	25 µg/mL
C/C=N/NC(=O)c1ccncc1	3 µg/mL	Erdman	colony count	inhibition	90%
CC(=O)OC1C[C@H]2C(C)(C)C(=O)C=C[C@]2(C)[C@H]2CCC3(C)C(c4ccoc4)C(=O)[C@H]4O[C@]43[C@]12C		H37Rv	BACTEC	MIC bound	>12.5 µg/mL
Clc1ccc(-n2cc(C3CC(c4ccc(-c5ccccc5)cc4)=NN3)c(-c3ccccc3)n2)cc1		H37Rv	resazurin	MIC	50 µg/mL
CC1OC(C)C(O)C2=C1C(=O)c1ccccc1C2=O		H37Rv	BACTEC	MIC bound	≤12.5 µg/mL
CC1=NN(c2ccc3c(c2)Nc2ccccc2S3)C2NC(=S)NC(c3ccccc3O)C12		H37Rv	BACTEC / broth dilution / radiometric	MIC	<6.25 µg/mL
Cc1nc2ccccc2nc1C(=O)CN1CCN(C)CC1		H37Rv	resazurin	MIC	50 µg/mL
NNC(=O)c1ccncc1		Isolate A		MIC	0.125 µg/mL
Clc1ccc(-c2nn(-c3ccc(Cl)cc3)cc2C2CC(c3ccc4c(c3)CCO4)=NN2)cc1		H37Rv	resazurin	MIC	25 µg/mL
O=C1C2[Se][Se]C(C(=O)N2Cc2ccccc2)N1Cc1ccccc1			turbidity	EC50	2.7 µM
Cc1ccc(-c2nn(-c3ccc(Cl)cc3)cc2C2CC(c3ccc(C)o3)=NN2)cc1		H37Rv	resazurin	MIC	25 µg/mL
CCCCCCCCOc1cccc(NC(=O)OCC[NH+]2CCCC2)c1		My 331/88		MIC	16 µM
Nc1c(-c2ccccc2[N+](=O)[O-])nc2ccccn12	12.5 µg/mL	H37Rv	BACTEC	inhibition	0%
Nc1ccc(C(=O)N/N=C/c2ccc(O)cc2)cc1		H37Rv		EC50	>12.5 µg/mL
Cc1nc2ccccc2nc1C(=O)CSCCN		H37Rv	resazurin	MIC	50 µg/mL
CC1(C)S[C@@H]2[C@H](NC(=O)Cc3ccccc3)C(=O)N2[C@H]1C(=O)O		H37Ra		MIC	256 µg/mL
COc1ccc(CCC2CCc3ccccc3N2C)cc1OC		MT1		MIC	161 µg/mL
O=C1C(=O)c2ccccc2C(O)=C1C(C1=C(O)c2ccccc2C(=O)C1=O)c1ccc(Cl)cc1Cl		H37Rv	BACTEC	MIC bound	>12.8 µg/mL
CC1=NN(c2ccc3c(c2)Nc2ccccc2S3)C2NC(=S)NC(c3ccccc3)C12		H37Rv	BACTEC / broth dilution / radiometric	MIC	>6.25 µg/mL
S=C(Nc1ccc(Cl)cc1)Nc1ncc(C2CCC2)o1		H37Rv	agar	MIC	1.23 µM
CC1=NN(c2ccc3c(c2)Nc2ccccc2S3)C2NC(=S)NC(c3ccc(O)cc3)C12		H37Rv	BACTEC / broth dilution / radiometric	MIC	>6.25 µg/mL
Oc1ccccc1NC(=S)Nc1ncc(C2CCC2)o1		H37Rv	agar	MIC	10.81 µM
CC(=O)/C(N=Nc1ccc(C(=O)N/N=C/c2ccc(N(C)C)cc2)cc1)=C(\C)O	12.5 µg/mL	H37Rv		inhibition	25%
O=C(O)c1ccccc1N=N/C(=N\Nc1ccccc1C(=O)O)c1ccnc2ccccc12		H37Rv	BACTEC	MIC bound	>12.5 µg/mL
COC(=O)C(=O)NNc1ccc([N+](=O)[O-])cc1		BCG		MIC	0.03 µg/mL
Cc1ccc(-c2nn(-c3ccc(Cl)cc3)cc2C2CC(c3ccc(-c4ccccc4)cc3)=NN2)cc1		H37Rv	resazurin	MIC	50 µg/mL
Nc1ncnc(N)c1NC(=O)c1cccnc1	12.5 µg/mL	H37Rv	BACTEC	inhibition	0%
[N-]=[N+]=NCCCN1C(=O)C2(OCCO2)c2cc(Cl)ccc21		MC2 6230		MIC99	>325 µM
COc1cccc(NC(=O)OCC[NH+]2CCCC2)c1		My 331/88		MIC	>1000 µM
Cc1nc(/N=C(\N)Nc2ccc(Cl)c(Cl)c2)ncc1N1CCC(N2CCCC2)CC1	12.5 µg/mL	H37Rv	BACTEC	inhibition	95%
Nc1ccc(C(=O)Oc2ccccc2)c(O)c1		H37Rv		MIC	0.0156 µg/mL
CC[C@@H](C)[C@H](O)[C@H](C)[C@@H](C/C=C/C=C/C(N)=O)OC(=O)/C=C/c1ccccc1				MIC	50 µg/mL
COc1c(N2CCNC(C)C2)c(F)cc2c(=O)c(C(=O)O)cn(C3CC3)c12		T912 isoniazid- and rifampicin-resistant		MIC	0.12 µg/mL
[N-]=[N+]=NCCCCCN1C(=O)C2(OCCO2)c2cc(Cl)ccc21		MC2 6230		MIC99	>298 µM
NNC(=O)c1ccncc1		H37Rv	resazurin	MIC	25 µg/mL
COC(=O)C1=CC(=O)N2C(=Nc3cccc4cccc2c34)S1		H37Rv	BACTEC	MIC bound	>12.5 µg/mL
CCCCCCCOc1cccc(NC(=O)OCC[NH+]2CCCC2)c1		My 331/88		MIC	32 µM
O=C(NNCC(NNC(=O)c1ccncc1)C(O)C(O)C(O)CO)c1ccncc1		BCG		MIC	0.04 µg/mL
Cc1occc1C(=S)Nc1ccc(Cl)c(C(=O)OCC2CC2)c1	12.5 µg/mL	H37Rv	BACTEC	inhibition	14%
CN1c2ccccc2CCC1CCc1ccc2c(c1)OCO2		MT4		MIC	>339 µg/mL
[N-]=[N+]=NCCCCN1C(=O)C(=O)c2cc(F)ccc21		MC2 6230		MIC99	>382 µM
O=C(Nc1ccccc1)c1cc(-n2cnc([N+](=O)[O-])c2)ccn1		H37Rv		MIC	0.8 µg/mL
CCn1cc(C(=O)O)c(=O)c2cc(F)c(N3CCN(C)CC3)cc21				MIC50	8 µg/mL

For reference, 6 entries again:

structure	tested at	strain	method	read-out	value
CC1=NN(c2ccc3c(c2)Nc2ccccc2S3)C2NC(=S)NC(c3ccccc3Cl)C12		H37Rv	BACTEC / broth dilution / radiometric	MIC	<6.25 µg/mL
Cc1ccccc1OC(=O)c1ccc(NC(=O)c2ccccc2C(=O)O)cc1O		H37Rv		MIC	0.25 µg/mL
CN1CCN(c2c(F)cc3c(=O)c(C(=O)O)cn(CCF)c3c2F)CC1				MIC90	3.13 µg/mL
CC(=O)/C(N=Nc1ccc(C(=O)N/N=C/c2ccncc2)cc1)=C(\C)O	12.5 µg/mL	H37Rv		inhibition	16%
CC(C)C(N)C(=O)NN		H37Rv	BACTEC	MIC bound	>12.5 µg/mL
CC1=NN(c2ccc3c(c2)Nc2ccccc2S3)C2NC(=S)NC(c3ccccc3O)C12		H37Rv	BACTEC / broth dilution / radiometric	MIC	<6.25 µg/mL